From patent US5409692A, “Glucosyltransferase inhibitors, as well as dental caries prevention methods and anticarious foods using the same” (priority 1990, dated 1995)

Test: Comparison of sweetness by organoleptic evaluation
Details: for Sweetness: relative to sugar (5% solution), 10 panelists, pair testing, room temperature

Structure (SMILES) | Sweetness (in words) (compared with sugar) | Sweetness
OC[C@H]1O[C@H](OC[C@H]2OC(O)(CO)[C@@H](O)[C@@H]2O)[C@H](O)[C@@H](O)[C@@H]1O (stereo partly drawn) [Palatinose, palatinose] | sweetness as low as less than half of sugar | 0.4
OC[C@H]1O[C@@](CO)(O[C@H]2O[C@H](CO)[C@@H](O)[C@H](O)[C@H]2O)[C@@H](O)[C@@H]1O [Sugar] | – | 1.0
